A mixed list of measured activities; the numbers were collected in NIAID ChemDB.

Common to all: growth or infection tests; species: Varicella zoster virus; measure: EC50

Conditions beyond the fields shown may differ between rows. ECn: concentration that inhibits the pathogen or its effect by n%. An empty or dashed field is not shown.

compound | strain | cell line | method | result
Nc1ccn(C[C@@H](CO)OCP(=O)(O)O)c(=O)n1 | Oka BVaraU-resistant | HEL | cytopathic effect | 0.1 µM
Nc1nc(F)nc2c1ncn2[C@@H]1C=C(CO)[C@@H](O)[C@H]1O | 07/1 YS/R (TK-) | E6SM | cytopathic effect | 40 µg/mL
Cc1ccc(CSCc2cnc3c(Br)cc(Br)c(C)n23)cc1 | 07/1 (TK-) | HEL | plaque count | >20 µg/mL
O=C(O)P(=O)(O)O | Oka CF1603-resistant | HEL | cytopathic effect | 27.8 µM
Cc1c(Br)cc(Br)c2ncc(CSCCc3ccccc3)n12 | OKA (TK+) | HEL | plaque count | 4 µg/mL
O=C(NCc1ccc(Cl)cc1)c1c[nH]c2ccc(CCCO)cc2c1=O | COH | - | plaque count | 0.2 µM
Cc1c(Br)cc(Br)c2ncc(CSC(C)c3cccs3)n12 | YS/R (TK-) | HEL | plaque count | >2 µg/mL
O=c1ccn([C@@H]2O[C@H](/C=C/C=C(Br)Br)[C@@H](O)[C@H]2O)c(=O)[nH]1 | OKA | HEL | - | >120 µM
O=C(O)/C=C/c1cn([C@@H]2O[C@H](CO)[C@@H](O)[C@@H]2O)c(=S)[nH]c1=O | HOSEN (TK+) | MRC-5 | plaque count | 90.6 µM
Nc1nc2c(ncn2CCC(CO)CO)c(=O)[nH]1 | Clinical isolate VZV-32 | HEL | cytopathic effect | 2.55 µM
O=c1[nH]c(=O)n([C@@H]2O[C@H](CO)[C@@H](O)[C@@H]2O)cc1/C=C/Br | OKA-H12 | HEL | plaque count | 0.0006 µg/mL
Cc1cccn2c(CSCc3ccccc3)cnc12 | YS/R (TK-) | HEL | plaque count | >1 µg/mL
Nc1ncnc2c1ncn2C(CF)CCCO | OKA | HEL | cytopathic effect | >50 µg/mL
CCc1cn([C@H]2C[C@H](O)[C@@H](CO)O2)c(=S)nc1N | HOSEN (TK+) | MRC-5 | plaque count | >288.6 µM
Cc1cccc(CSCc2cnc3c(Br)cc(Br)c(C)n23)c1 | YS/R (TK-) | HEL | plaque count | 6.2 µg/mL
C=Cc1cn([C@@H]2O[C@H](CO)[C@@H](O)[C@@H]2O)c(=S)nc1N | Kanno-Kohmura (TK-) | MRC-5 | plaque count | >266.3 µM
Cc1c(Br)cc(Br)c2ncc(CSCc3ccccc3Cl)n12 | YS (TK+) | HEL | plaque count | >5 µg/mL
O=C(O)CP(=O)(O)O | Kawaguchi acyclovir-resistant mutant A8 | - | plaque count | 1.59 µg/mL
CCc1cn([C@@H]2O[C@H](CO)[C@@H](O)[C@@H]2O)c(=S)nc1N | Kanno-Kohmura (TK-) | MRC-5 | plaque count | >264.9 µM
O=c1[nH]c(=O)n([C@@H]2O[C@H](CO)[C@@H](O)[C@@H]2O)cc1/C=C/Br | Kawaguchi (BrdU-resistant) | - | plaque count | >1 µg/mL
Cn1cc(C(=O)NCc2ccc(Cl)cc2)c(=O)c2cc(CN3CCOCC3)ccc21 | KL varicella isolate | HFF | plaque count | 0.1 µM
CCCCCCCCc1cc2cn([C@H]3C[C@H](O)[C@@H](CO)O3)c(=O)nc2o1 | YS (TK-) | - | - | >50 µM
O=C(O)CP(=O)(O)O | Oka CF1368-resistant | HEL | cytopathic effect | 50 µM
Nc1ccn(CCCC(O)CF)c(=O)n1 | YS/R (TK-) | HEL | cytopathic effect | >50 µg/mL
Nc1ncnc2c1ncn2C[C@@H](CO)OCP(=O)(O)O | Oka penciclovir-resistant/B | HEL | cytopathic effect | 0.017 µM
Nc1ccn(C(CF)CCCO)c(=O)n1 | OKA | HEL | cytopathic effect | >50 µg/mL
Nc1ccn([C@@H]2O[C@H](CO)[C@@H](O)[C@@H]2O)c(=O)n1 | YS-V10 H12 | HEL | plaque count | 0.2 µg/mL

2 of the rows above, restated:

compound | strain | cell line | method | result
O=c1ccn([C@@H]2O[C@H](/C=C/C=C(Br)Br)[C@@H](O)[C@H]2O)c(=O)[nH]1 | OKA | HEL | - | >120 µM
O=c1[nH]c(=O)n([C@@H]2O[C@H](CO)[C@@H](O)[C@@H]2O)cc1/C=C/Br | OKA-H12 | HEL | plaque count | 0.0006 µg/mL